Measured values reported in publication PMC3359301.
Construct, isoform or probe ends are uncertain for at least one entry.

Amino acid sequences for entries named in this document (tags omitted). A change or cut given only in a name is not applied to a line headed by its entry.
UniProt Q4WJ81: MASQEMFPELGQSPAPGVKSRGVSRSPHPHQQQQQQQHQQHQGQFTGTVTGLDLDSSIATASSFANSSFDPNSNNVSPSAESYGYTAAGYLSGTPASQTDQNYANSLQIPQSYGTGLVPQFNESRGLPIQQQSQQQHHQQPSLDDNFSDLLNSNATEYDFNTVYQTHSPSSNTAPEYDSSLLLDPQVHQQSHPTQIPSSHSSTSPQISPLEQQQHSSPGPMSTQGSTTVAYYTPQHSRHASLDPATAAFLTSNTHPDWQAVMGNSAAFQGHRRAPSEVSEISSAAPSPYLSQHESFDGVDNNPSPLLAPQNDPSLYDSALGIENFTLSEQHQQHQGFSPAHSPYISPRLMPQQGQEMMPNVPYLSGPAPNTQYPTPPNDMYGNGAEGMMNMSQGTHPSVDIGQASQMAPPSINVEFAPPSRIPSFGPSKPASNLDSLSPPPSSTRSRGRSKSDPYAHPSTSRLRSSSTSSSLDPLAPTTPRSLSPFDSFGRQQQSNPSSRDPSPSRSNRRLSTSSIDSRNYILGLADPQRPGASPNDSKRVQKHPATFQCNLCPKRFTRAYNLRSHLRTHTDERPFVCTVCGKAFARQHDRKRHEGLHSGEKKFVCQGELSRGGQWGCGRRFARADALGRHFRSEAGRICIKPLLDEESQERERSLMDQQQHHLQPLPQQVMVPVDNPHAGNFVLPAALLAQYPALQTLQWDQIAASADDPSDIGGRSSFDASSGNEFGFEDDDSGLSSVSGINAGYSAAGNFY

Biological target: GST::CrzA (UniProt Q4WJ81)
Assay: competition with a labelled probe
Details: recombinant protein, protein details: N-terminal GST (pDEST15)

Sequence | binding result (pmcC probe, complete inhibition at about 15-fold excess) | binding result (pmcA probe, complex inhibited only at 30-fold excess)
TCCGACACAGCCACGCTCT (double strand) [pmcC1/pmcC2 CDRE oligonucleotide] | binds | –
TGTTGCCCTGCCCCTTGTC (double strand) [pmcA1/pmcA2 CDRE oligonucleotide] | – | binds
